Pooled drug test results. Numbers come from NIAID ChemDB, via PubChem.

Common to all: tests in culture; agent: HIV-1; endpoint: EC50

ECn is the concentration giving n% inhibition of infection, replication or growth. Rows are shuffled and stem from different studies. Blank or dashed fields: not listed here.

structure | setting | cell line | strain | read by | mutations | value
CC(C)(C)NC(=O)c1ccccc1OC[C@@H](O)[C@H](Cc1ccccc1)NC(=O)[C@H](CC(N)=O)NC(=O)c1ccc2ccccc2n1 |  | CEM | IIIB | cytopathic effect / MTT |  | 2.9 µM
Cc1ccc(-c2cc(-c3ccccc3)n(-c3ccc(Cl)cc3)n2)c(=O)[nH]1 |  | TZM-bl | UG070 | luminescence |  | 213 µM
CCCCCOC(=O)[C@H](C)NP(=O)(CO[C@H](C)Cn1cnc2c(N)ncnc21)NC[C@H](C)C(=O)OC(C)C | 10% human serum | MT4-GFP |  | fluorescence |  | 6.1 µM
CCc1c(Cc2cc(C)cc(C)c2)n(COCC#CC#CCO)c(=O)[nH]c1=O |  | MT-4 | IIIB | MTT | EFV-resistant (K103R V179D P225H) | 17 µM
C=CC(C)(/C=C\c1ccc(O)cc1)c1ccc(O)cc1.NC(=O)NO |  | PBMC | BaL | p24 |  | 0.0013 µM
COC(=O)c1cc2c(OC)cccc2[nH]1 |  |  |  | p24 |  | 4.12 µg/mL
C=C(C)OC(=O)N1c2cc(Cl)ccc2NC(=S)C1(C)C |  | H9 | MN: RS(HBY 097) | p24 |  | >50 µM
COC(=O)c1cc2cc(N)cc(OC)c2[nH]1 |  |  |  | p24 |  | 0.84 µg/mL
CCc1c(Cc2cc(C)cc(C)c2)n(COCC#Cc2cccc(CO[Si](c3ccccc3)(c3ccccc3)C(C)(C)C)c2)c(=O)[nH]c1=O |  | MT-4 | IIIB | MTT | Y181C | 23 µM
COc1cc(C[C@H]2CO[C@@H](O[C@@H](CCc3ccccc3)CC(=O)c3ccc(O)cc3)[C@@H]2Cc2ccc(O)c(OC)c2)ccc1O |  |  |  | cytopathic effect |  | 0.39 µg/mL
CN1c2ccccc2C2C1C=C(C#N)C(=O)N2c1ccc([N+](=O)[O-])cc1 |  | HeLa | A-92UG029 | GFP / fluorescence |  | 0.05 µM
CC(C)(C)NC(=O)c1ccccc1SC[C@@H](O)[C@H](Cc1ccccc1)NC(=O)[C@H](CC(N)=O)NC(=O)c1ccc2ccccc2n1 |  | CEM | IIIB | cytopathic effect / MTT |  | 0.25 µM
COC(=O)C(C)NP(=O)(OC[C@@H]1C=C[C@H](n2cc(I)c(=O)[nH]c2=O)O1)Oc1ccccc1 |  | CEM + CEM/0 | IIIB | syncytia |  | 3 µM
CCc1c(Cc2cc(C)cc(C)c2)n(COCC#Cc2ccccc2C(F)(F)F)c(=O)[nH]c1=O |  | MT-4 | IIIB | MTT | EFV-resistant (K103R V179D P225H) | >25 µM
Cc1cn([C@H]2O[C@@H](CO)C[C@@H]2O)c(=O)[nH]c1=O |  | MT-4 |  | RT activity |  | >100 µM
Nc1ncnc2c1ncn2[C@@H]1O[C@H](COP(=O)(O)O[C@@H]2[C@H](O)[C@@H](COP(=O)(O)O[C@@H]3[C@H](O)[C@@H](COP(=O)(O)O[C@@H]4[C@H](O)[C@@H](CO)O[C@H]4n4cnc5c(N)ncnc54)O[C@H]3n3cnc4c(N)ncnc43)O[C@H]2n2cnc3c(N)ncnc32)[C@@H](O)[C@H]1O |  | PBL | IIIB | syncytia |  | >300 µM
CC(=O)N1CCC(C(=O)N(CCCN2CCC(Cc3ccc(C(N)=O)cc3)CC2)c2ccc(C)c(Cl)c2)CC1 |  | PBMC | R5-18 Clinical isolate | p24 |  | 0.00226 µM
CC1CC(C)CN(S(=O)(=O)c2ccccc2[N+](=O)[O-])C1 |  | HeLa | C-98IN022 | GFP / fluorescence |  | 2.65 µM
CCc1c(Cc2cc(C)cc(C)c2)n(COCC#Cc2cccc(O[Si](c3ccccc3)(c3ccccc3)C(C)(C)C)c2)c(=O)[nH]c1=O |  | MT-4 | IIIB | MTT | EFV-resistant (K103R V179D P225H) | 5.4 µM
O=C(C[C@@H](O)CCc1ccccc1)c1ccc(O)cc1 |  |  |  | cytopathic effect |  | 10.86 µg/mL
COc1cc(N)cc2nc(N)cc(OC)c12 |  |  |  | p24 |  | 0.13 µg/mL
Cc1ccc(-c2ccc3c(c2)C=C(C(=O)Nc2ccc(C[N+](C)(C)C4CCOCC4)cc2)CCC3)cc1 |  | PBMC | Du174 CLADE C | p24 |  | <1 µM
CC(C)OC(=O)CCNP(=O)(CO[C@H](C)Cn1cnc2c(N)ncnc21)N[C@@H](C)C(=O)OC(C)C | 10% human serum | MT4-GFP |  | fluorescence |  | 26.4 µM
COc1ccnc2[nH]cc(C(=O)C(=O)N3CCN(C(=O)c4ccccc4)C[C@H]3C)c12 |  | MT-2 | NL4-3(GP120-M475I) Recombinant | RT activity | GP120-M475I | 2.689 µM
CCc1c(Cc2ccccc2C)n(COCC#CC2c3ccccc3-c3ccccc32)c(=O)[nH]c1=O |  | MT-4 | IIIB | MTT | WT | 12 µM
Cc1cc(C)cc(-n2nc(-c3ccc(C)[nH]c3=O)cc2-c2ccccc2)c1 |  | TZM-bl | UG070 | luminescence |  | >563 µM
CC(C)COC(=O)[C@H](C)NP(=O)(CO[C@H](C)Cn1cnc2c(N)ncnc21)NC[C@H](C)C(=O)OC(C)C | 10% human serum | MT4-GFP |  | fluorescence |  | 16.6 µM
Cc1ccc(-c2cc(-c3ccccc3)n(-c3ccc(C(C)(C)C)cc3)n2)c(=O)[nH]1 |  | TZM-bl | UG070 | luminescence |  | 16.21 µM
Cc1cn(C2C[C@H](CO)[C@@H](CO)C2)c(=O)[nH]c1=O |  | H9 | IIIB | RT activity |  | >10 µg/mL
CCCCCCCOC(=O)[C@H](C)NP(=O)(CO[C@H](C)Cn1cnc2c(N)ncnc21)NC[C@H](C)C(=O)OC(C)C | 50% human serum | MT4-GFP |  | fluorescence |  | 43 µM
CC(C)(C)NC(=O)c1ccccc1SC[C@H](O)[C@H](Cc1ccccc1)NC(=O)[C@H](CC(N)=O)NC(=O)c1ccc2ccccc2n1 |  | CEM | IIIB | cytopathic effect / MTT |  | 0.62 µM
Cc1cc(C)cc(C[C@@H]2[C@H](O)[C@@H](O)[C@@H](Cc3ccccc3)N(Cc3ccc4[nH]nc(N)c4c3)C(=O)N2Cc2ccccc2)c1 |  |  | HXB2 |  |  | <0.1 µM
CCc1c(Cc2cc(C)cc(C)c2)n(COCc2cn(-c3cccnc3)nn2)c(=O)[nH]c1=O |  | MT-4 | IIIB | MTT | K103N + Y181C | 100 µM
COC(=O)c1ccc2cc(OC)cc(N)c2n1 |  |  |  | p24 |  | 0.21 µg/mL
Cc1cn([C@H]2CC[C@@H](CO)C2)c(=O)[nH]c1=O |  | H9 | IIIB | antigen |  | 10 µM
CCCCCOC(=O)C(C)(C)NP(=O)(CO[C@H](C)Cn1cnc2c(N)ncnc21)N[C@H](C)CC(=O)OC(C)C | 50% human serum | MT4-GFP |  | fluorescence |  | 6.8 µM
Nc1ccn([C@H]2CC[C@@H](CO)O2)c(=O)n1 |  |  | NL4-3 | β-galactosidase | Q41R | 0.259 µM
Cc1ccc(-n2nc(-c3ccc(C)[nH]c3=O)cc2-c2ccccc2)c(C)c1 |  | TZM-bl | VB59 | luminescence |  | >56.34 µM
Cc1cn([C@H]2O[C@@H](CO)C[C@@H]2N=[N+]=[N-])c(=O)[nH]c1=O |  | CEM + CEM-SS |  | cytopathic effect / MTT |  | >100 µM
Cc1ccc(-c2cc(-c3ccccc3)n(-c3ccc(Br)cc3)n2)c(=O)[nH]1 |  | TZM-bl | UG070 | luminescence |  | 45.17 µM
CCCCCCOC(=O)C(C)(C)NP(=O)(CO[C@H](C)Cn1cnc2c(N)ncnc21)N[C@H](CC(=O)OC(C)C)C(C)C | 10% human serum | MT4-GFP |  | fluorescence |  | 2.1 µM
Cc1cn([C@@H]2O[C@H](CO[Si](C)(C)C(C)(C)C)[C@@]3(OS(=O)(=O)C([N+](=O)[O-])=C3N)[C@H]2O[Si](C)(C)C(C)(C)C)c(=O)n(C)c1=O |  | MT-4 |  |  |  | 5.99 µM
Nc1ccn([C@H]2CC[C@@H](CO)O2)c(=O)n1 |  | PBMC | IIIB | cytopathic effect / trypan blue |  | 0.088 µM
CN[C@@H]1[C@H](O[C@@H]2OC[C@@H](O)[C@H](O)[C@H]2O)[C@@H](O)[C@H](O[C@H]2c3cc(C)c(C(=O)N[C@H](C)C(=O)O)c(O)c3-c3c(cc4c(c3O)C(=O)c3cc(OC)cc(O)c3C4=O)[C@@H]2O)O[C@@H]1C |  | CEM | Mutant AH_1/#58 | syncytia |  | 5.1 µM